A mixed list of measured activities; the numbers were collected in NIAID ChemDB.

All rows: tests in culture; agent: HIV-1

An empty or dashed field is not shown. Rows are shuffled and stem from different studies. ECn is the concentration giving n% inhibition of infection, replication or growth.

structure	cell line	read-out	strain or isolate	conditions	read by	mutations	value
O=c1[nH]c(=O)n(/C=C\P(=O)(O)O)cc1I	CEM + CEM-SS	EC50	IIIB				>200 µM
C=CCN(C(=O)OCc1ccc([N+](=O)[O-])cc1)C1CCN(CC[C@](C)(CN(C)S(=O)(=O)c2ccccc2)c2ccccc2)CC1	PBMC	EC50	BaL		p24		<0.013 µM
CCc1cc(NCc2nc3c(Cl)ccc(Cl)c3o2)c(=O)[nH]c1C	MT-4	EC50	DLV-resistant MF (RT-P236L)		p24	RT-P236L	<0.43 µM
CCCCCCCCCCCCCCCCOP(=O)(OC[C@H]1OC(O)[C@H](O)[C@@H](O)[C@@H]1O)OC[C@H]1O[C@@H](n2cc(C)c(=O)[nH]c2=O)C[C@@H]1N=[N+]=[N-]	CEM	EC50	LAV-Bru	22 d	RT activity		>1 µM
Oc1cc(O)c2c(c1)O[C@H](c1ccc(O)c(O)c1)[C@@H](O)C2	C8166	EC50	IIIB		syncytia		14.4 µg/mL
CC(=O)SCCOP(=O)(OCCSC(C)=O)OC[C@@H]1CC[C@H](n2ccc(=O)[nH]c2=O)O1	MT-4	EC50	LAI		RT activity		2 µM
Nc1c(S(=O)(=O)O)cc2c3c(cc(S(=O)(=O)O)cc13)C(=O)N(NC(=O)N/N=C\c1ccc(-c3ccc(C=O)cc3)cc1)C2=O	PBMC	EC50	LAV		trypan blue		21.8 µM
C[C@H](CCC(=O)NCCS(=O)(=O)O)[C@H]1CC[C@H]2[C@@H]3CC[C@@H]4C[C@H](O)CC[C@]4(C)C3CC[C@]12C	JM	EC50	GBB		p24		2 µg/mL
CC[C@H](C)[C@H](NC(=O)[C@@H]1CCCN1C[C@H](O)[C@H](Cc1ccccc1)NC(=O)[C@H](CC(N)=O)NC(=O)[C@H](CC(C)C)NC(C)=O)C(=O)N[C@H](C(N)=O)C(C)C	CBMC(PHA) + CBMC	EC50	TC354	4 d	RT activity		>10 µM
C=C(C)[C@]12C[C@@H](COC(=O)c3ccccc3)[C@@]34O[C@]5(O[C@@H]1[C@@H]3[C@@H]1O[C@]1(CO)[C@@H](O)[C@@]1(O)[C@H]4[C@H]([C@H](C)[C@@H]1OC(=O)c1ccccc1)[C@H](C)CCCCCC[C@H]5O)O2	PBMC	EC50	YU2		p24 / ELISA		0.0000045 µM
O=C(OC[C@@H]1OC(=O)c2ccccc21)c1ccccc1	CEM	EC50					>10 µM
CCOP(=O)(/C=C/n1cnc2c(=O)[nH]c(NC(C)=O)nc21)OCC	CEM + CEM-SS	EC50	IIIB				>200 µM
CCc1c(C(=O)c2cc(C)cc(C)c2)n(CC2CC=CC2)c(=O)[nH]c1=O	PBMC	EC50	TEKI	clinical isolate	cytopathic effect / XTT		0.001 µM
C=CCN1C(=O)N(Cc2ccc3ccccc3c2)[C@H](Cc2ccccc2)[C@H](O)[C@@H](O)[C@H]1Cc1ccccc1	MT-2	EC50	RF		hybridisation		<0.99 µM
COc1cc(O[C@@H]2O[C@H](CO)[C@@H](O)[C@H](O)[C@H]2O)ccc1O	C8166	EC50	IIIB		syncytia		>200 µg/mL
CC(C)=CCN1Cc2cc(Cl)cc3[nH]c(=S)n(c23)C[C@@H]1C	MT-4	EC95				RT-L74V Y181C	>3 µM
COc1ccc(CN2C(=O)N(Cc3ccc(OC)cc3)[C@H](Cc3ccccc3)[C@H](O)[C@@H](O)[C@H]2Cc2ccccc2)cc1	MT-2	EC50	RF		hybridisation		<7.6 µM
O=c1[nH]cnc2c1ncn2[C@H]1CC[C@@H](CO)O1	CEM + CEM-SS	EC50	LAI		RT activity		4.3 µM
Cc1[nH]nc2ccc(CN3C(=O)N(Cc4cccc(N)c4)[C@H](Cc4ccccc4)[C@H](O)[C@H]3CCc3ccccc3)cc12	MT-2	EC50	RF		cytopathic effect / MTT		<0.032 µM
CC(=O)SCCOP(=O)(OCCSC(C)=O)OC[C@H]1O[C@@H](n2cc(C)c(=O)[nH]c2=O)C[C@@H]1N=[N+]=[N-]	CEM + CEM TK-	EC50	LAI		RT activity		>100 µM
Nc1nc2c(ncn2COCCO)c(=O)[nH]1	PHA-activated CD4+ lymphoblasts	EC50	CXCR4-tropic HIV pseudovirus		GFP	V75I	>300 µM
OC[C@H]1N[C@H](CO)[C@@H](O)[C@@H]1O	MOLT-4	EC50	NDK		cytopathic effect		167 µg/mL
CCOP(=O)(/C=C\n1ccc(=O)[nH]c1=O)OCC	CEM + CEM-SS	EC50	IIIB				>200 µM
Fc1cccc(F)c1C1SCc2nc3ccccc3n21	MT-4	EC50	HE		cytopathic effect		0.52 µM
Cc1cn(/C=C/P(=O)(O)O)c(=O)[nH]c1=O	CEM + CEM-SS	EC50	IIIB				>200 µM
COc1cccc(CN2C(=O)N(Cc3cccc(OC)c3)[C@H](Cc3ccccc3)[C@H](O)[C@@H](O)[C@H]2Cc2ccccc2)c1	MT-2	EC50	RF		hybridisation		<1.3 µM
Cc1cc(C)cc(S(=O)(=O)c2c(C(=O)NC(C)C(=O)NC(C)c3ccccc3F)[nH]c3ccc(Cl)cc23)c1	MT-4	EC50	NL4-3		cytopathic effect / MTT / absorbance	Y188L	>152 µM
Nc1ncnc2c1ncn2CCOCP(=O)(O)O	MT-4	EC50			cytopathic effect / MTT		2 µg/mL
COc1cc([C@@H]2c3c(cc(OC)c(O)c3OC)C[C@H](CO)[C@H]2COS(=O)(=O)[O-])cc(OC)c1O.[Na+]	C8166	EC50	IIIB		syncytia		71.06 µg/mL
CC[C@H](C)[C@H](NC(=O)[C@H](Cc1ccccc1)NC[C@@H](O)[C@H](Cc1ccccc1)NC(=O)[C@@H](NC(=O)[C@H](CC(C)C)NC(C)=O)C(C)C)C(=O)N[C@H](C(N)=O)C(C)C	CBMC(PHA) + CBMC	EC50	TC354	4 d	RT activity		>10 µM
NNC(=O)NN1C(=O)c2cc(S(=O)(=O)[O-])cc3c(N)c(S(=O)(=O)[O-])cc(c23)C1=O	PBMC	EC90	LAV		trypan blue		>100 µM
Nc1ccn([C@@H]2O[C@H](CO)C[C@@H]2F)c(=O)n1	JM	EC50	GBB		p24		0.05 µg/mL
Cc1cn([C@H]2C[C@H](N=[N+]=[N-])[C@@H](CO)O2)c(=O)[nH]c1=O	CEM + CEM-SS	EC50	LAI		cytopathic effect / MTT		0.006 µM
O=c1[nH]cnc2c1ncn2[C@H]1CC[C@@H](CO)O1	CD4+HELA + HeLa	EC50	RTMC		plaque count		2.5 µM
Nc1ncnc2c1ncn2[C@H]1CC[C@@H](CO)O1	C8166	EC50	IIIB		syncytia		17 µM
Cc1cn([C@H]2C[C@H](N=[N+]=[N-])[C@@H](CO)O2)c(=O)[nH]c1=O	C8166	EC50	IIIB		p24 / ELISA / antigen		0.00147 µg/mL
CC(C)(C)OC(=O)[C@@H]1CCCN1C[C@H](O)[C@H](Cc1ccccc1)NC(=O)[C@H](CC(N)=O)NC(=O)OCc1ccccc1	MT-4	EC50	IIIB		cytopathic effect / MTT		158 µg/mL
Nc1n[nH]c2ccc(CN3C(=O)N[C@H](CCc4ccccc4)[C@@H](O)[C@H]3Cc3ccccc3)cc12	MT-2	EC50	RF		cytopathic effect / MTT		<0.549 µM
Cc1cc(C)cc(S(=O)(=O)c2c(C(=O)NCC(=O)NC(C)c3ccncc3)[nH]c3ccc(Cl)cc23)c1	MT-4	EC50	NL4-3		cytopathic effect / MTT / absorbance	K103N	0.305 µM
O=C(O)P(=O)(O)O	MT-4	EC50	IIIB		cytopathic effect / MTT		12.6 µg/mL
CC(=O)SCCOP(=O)(OCCSC(C)=O)OC[C@@H]1CC[C@H](n2cnc3c(=O)[nH]cnc32)O1	CEM + CEM TK-	EC50	LAI		RT activity		0.3 µM
NC(=O)c1cccc(CN2C(=O)N(Cc3cccc(C(N)=O)c3)[C@H](Cc3ccc(F)c(F)c3)[C@H](O)[C@H]2CCc2ccc(F)c(F)c2)c1	MT-2	EC50	RF		cytopathic effect / MTT		<0.09 µM
COc1ccc(CN[C@@H](C(=O)N[C@H](C(=O)NCc2nc3ccccc3[nH]2)C(C)C)[C@H](O)[C@H](Cc2ccccc2)NC(=O)[C@@H](NC(=O)[C@@](C)(O)c2ccccc2)C(C)(C)C)cc1	MT-4	EC50	IIIB		MTT / p24		0.0079 µM
CC[C@H](C)[C@H](NC(=O)[C@H](Cc1ccccc1)NC[C@H](O)[C@H](Cc1ccccc1)NC(=O)[C@@H](NC(=O)[C@H](CC(C)C)NC(C)=O)C(C)C)C(=O)N[C@H](C(N)=O)C(C)C	CBMC(PHA) + CBMC	EC50	TC354	4 d	RT activity		>10 µM
Cc1cn([C@H]2C[C@H](N=[N+]=[N-])[C@@H](CO)O2)c(=O)[nH]c1=O	PBL	EC50	LAV-Bru	7 d	RT activity		<1 µM
Cc1cn([C@H]2C[C@H](N=[N+]=[N-])[C@@H](CO)O2)c(=O)[nH]c1=O	MT-2	EC50	UC781-resistant (RT K103N Y181C) A17		p24	RT-K103N Y181C	0.03309 µg/mL
COc1ccc(Cc2nccc3cc(OC)c(OC)cc23)cc1OC	C8166	EC50	RF		p24		11.5 µg/mL
CC[C@H](C)[C@H](NC(=O)[C@@H]1CCCN1C[C@@H](O)[C@H](Cc1ccccc1)NC(=O)[C@H](CC(N)=O)NC(=O)[C@H](CC(C)C)NC(=O)[C@H](CO)NC(C)=O)C(=O)N[C@H](C(=O)OC)C(C)C	CBMC(PHA) + CBMC	EC50	TC354	4 d	RT activity		>10 µM
O=c1[nH]c(=O)n(/C=C/P(=O)(O)O)cc1CO	CEM + CEM-SS	EC50	IIIB				>200 µM
Cc1cn([C@H]2C[C@H](N=[N+]=[N-])[C@@H](CO)O2)c(=O)[nH]c1=O	HT4 + HT4-6C	EC50	clinical isolate A012D (RT D67N K70R T215F K219Q)		plaque count	RT-D67N K70R T215F K219Q	2 µM
Nc1cccc(CN2C(=O)N(Cc3cccc(N)c3)[C@H](Cc3ccccc3)[C@H](O)[C@@H](O)[C@H]2Cc2ccccc2)c1	MT-2	EC50	RF		hybridisation		<0.13 µM
Cc1cn([C@H]2C[C@H](N=[N+]=[N-])[C@@H](COP(=O)(O)OC[C@H]3OC(O)[C@H](O)[C@@H](O)[C@@H]3O)O2)c(=O)[nH]c1=O	CEM	EC50	LAV-Bru	7 d	RT activity		<0.2 µM
O=C1N(Cc2cccnc2)[C@H](Cc2ccccc2)[C@H](O)[C@@H](O)[C@@H](Cc2ccccc2)N1Cc1cccnc1	MT-2	EC50	RF		hybridisation		<8.8 µM
Nc1ccn([C@H]2CC[C@@H](CO)O2)c(=O)n1	CEM + CEM-SS	EC50	RF		cytopathic effect / XTT		0.11 µM
OC[C@H]1O[C@@H](Oc2cc(O)cc3c2C[C@@H](O)[C@@H](c2ccc(O)c(O)c2)O3)[C@H](O)[C@@H](O)[C@@H]1O	C8166	EC50	IIIB		syncytia		58.88 µg/mL
Nc1c(S(=O)(=O)O)cc2c3c(cc(S(=O)(=O)O)cc13)C(=O)N(NC(=O)N/N=C/c1ccc(-c3ccc(/C=N/NC(=O)NN4C(=O)c5cc(S(=O)(=O)O)cc6c(N)c(S(=O)(=O)O)cc(c56)C4=O)cc3)cc1)C2=O	PBMC	EC50	LAV		trypan blue		5.6 µM
COc1ccc(CN[C@@H](C(=O)N[C@H](C(=O)NCc2nc3ccccc3[nH]2)C(C)C)[C@H](O)[C@H](Cc2ccccc2)NC(=O)[C@@H](NC(=O)OCc2ccccc2)C(C)(C)C)cc1	HuT-78 + HUT 78	EC50	IIIB		MTT / p24		0.0059 µM
Nc1ncnc2c1ncn2[C@H]1CC[C@@H](CO)O1	CEM + CEM TK-	EC50	LAI		RT activity		1.1 µM
Fc1cccc(F)c1[C@H]1SCc2nc3ccccc3n21	CEM	EC50	IIIB		cytopathic effect / XTT	RT-V106N	4.85 µM
CCOP(=O)(N[C@@H](CC(C)C)C(=O)OC)OC[C@H]1O[C@@H](n2cc(C)c(=O)[nH]c2=O)C[C@@H]1N=[N+]=[N-]	JM	EC50	GBB		p24		20 µg/mL
O=c1[nH]cnc2c1ncn2[C@H]1CC[C@@H](CO)O1	CEM	EC50	IIIB		syncytia		2.2 µM
Cc1cn([C@H]2C=C[C@@H](CO)O2)c(=O)[nH]c1=O	MT-4	EC50	RTMC (P-0)				1.2 µM

A second listing of 4 rows from above:

{"structure": "COc1cc(O[C@@H]2O[C@H](CO)[C@@H](O)[C@H](O)[C@H]2O)ccc1O", "cell line": "C8166", "read-out": "EC50", "strain or isolate": "IIIB", "read by": "syncytia", "value": ">200 µg/mL"}
{"structure": "Nc1ccn([C@@H]2O[C@H](CO)C[C@@H]2F)c(=O)n1", "cell line": "JM", "read-out": "EC50", "strain or isolate": "GBB", "read by": "p24", "value": "0.05 µg/mL"}
{"structure": "Cc1cn([C@H]2C[C@H](N=[N+]=[N-])[C@@H](CO)O2)c(=O)[nH]c1=O", "cell line": "PBL", "read-out": "EC50", "strain or isolate": "LAV-Bru", "conditions": "7 d", "read by": "RT activity", "value": "<1 µM"}
{"structure": "Cc1cn(/C=C/P(=O)(O)O)c(=O)[nH]c1=O", "cell line": "CEM + CEM-SS", "read-out": "EC50", "strain or isolate": "IIIB", "value": ">200 µM"}